Assay [1] has as its target A/Hong Kong/01/1968 (H3N2) HA (influenza A virus A/Hong Kong/01/1968 (H3N2)) (UniProt Q91MA7). In words: ELISA. Background: In an ELISA, binding on a coated surface is turned into a signal by an enzyme label.
Assay [2] addresses SC/09 H1N1 HA protein (A/Sichuan/01/2009) (influenza A virus A/Sichuan/01/2009 (H1N1)). Briefly: ELISA.

In publication PMC9061721 one finds EC50 data, which are given here for one substance.

A word on the EC50: it is the midpoint of the concentration-response curve. Read a high EC50 as lower potency in that assay. In the case of MEDI8852, the results for the EC50 in assay [1] and in assay [2] were 0.0904 µg/mL and 0.0648 µg/mL, respectively.
